Target: EBOV-GP-RBD without the glycan cap and MLD, displayed on the cell surface (EGPdcm, wild type) (Zaire ebolavirus)

Substance: human soluble CD4-183 (sCD4-183) two-domain protein (domain or fragment)
- percent NPC1 binding left with 20 μM sCD4: 20.1%

Source: article PMC12148371 (iScience, 2025)
